Data: patent EP1369120B1 (priority 2002, dated 2003)
pEC50, pIC50: −log10 of the molar value.

What was measured:
[1] = test system: HCV sub-genomic replicons (Ava.5); test: Inhibition of HCV RNA replication in replicon cells, measured by Q-PCR; assay type: cell-based, hepatitis C virus; settings: for pEC50: 24 hours of drug treatment, HCV RNA (positive-strand), Q-PCR
[2] = test system: Huh-7 cells containing HCV sub-genomic replicons (Ava.5); test: Cell growth inhibition (cytotoxicity) by MTS assay; assay type: cell-based; settings: Cytotoxicity on Ava.5 cells, treatment for 24 hours

Row | Substance | HCV RNA detected (relative copy number) ([1]; 2 TM Sb2O3, 24 hr, untreated = 100%) [%] | pEC50 ([1]; Ava5 cells) | pIC50 [2] | inhibition of HCV replication ([1]; at 2 µM of Bi2O3 treatment, Ava5 cells, 24 hr)
1 | antimony trioxide | 20 | 6.10 | 4.90 | –
2 | Bismuth trioxide | – | – | < 5.00 | 35 % inhibition of HCV replication at 2 µM of Bi2O3 treatment
3 | Arsenic iodide | – | 6.00 | 5.00 | –
